Laboratory results from patent publication US20030224403A1 (priority 2002, published 2003).

System: RAW 264.7 cells
Format: cell-based, mouse

IL-2: murine interleukin-2
effect of murine cytokine on cell lysis by LeTx: without effect
